Pooled drug test results. Numbers come from NIAID ChemDB, via PubChem.

All rows: tests on isolated targets; agent: HIV-1; target: Reverse transcriptase; read by: nucleotide incorporation / radiometric; measure: IC50

a–b is a range or a potency band. Neighbouring rows are from separate reports. ICn is the concentration giving n% inhibition. Blank or dashed fields: not listed here.

structure,changes,strain or isolate,result
O=C(CSc1nnc(Br)n1-c1ccc(C2CCC2)c2ccccc12)Nc1ccc(C(=O)O)cc1Cl,-,-,<0.05 µM
CCN1c2ncc(CCOc3ccc(C(=O)NNCC(=O)O)cc3C)cc2C(=O)N(C)c2cccnc21,RT-K103N Y181C,IIIB,>0.1 µM
CCN1c2ncc(CC(O)c3ccncc3)cc2C(=O)N(C)c2ccc(Cl)nc21,RT-Y181C,-,<1 µM
CCN1c2ncc(CCOc3ccc(-c4cccc[n+]4[O-])cc3C)cc2C(=O)N(C)c2cccnc21,RT-K103N Y181C,IIIB,<0.05 µM
CCc1ccc(-n2c(Br)nnc2SCC(=O)Nc2ccc(C(=O)NCC(=O)OC)cc2Cl)c2ccccc12,RT-Y181C,-,<0.05 µM
O=C(CSc1nnc(Br)n1-c1ccc(C2CC2)cc1C(F)(F)F)Nc1ccc(C(=O)O)cc1Cl,RT-Y188L,-,>0.1 µM
COC(=O)[C@@H](NC(=O)c1ccc(NC(=O)CSc2nnc(Br)n2-c2ccc(C3CC3)c3ccccc23)c(Cl)c1)C(C)C,RT-Y181C,-,<0.05 µM
NC(=O)c1[nH]c2ccc(Cl)cc2c1S(=O)(=O)c1ccccc1,RT-K103N,-,0.005 µM
O=C(CSc1nnc(Br)n1-c1ccc(C2CC2)cc1Cl)Nc1ccc(C(=O)O)cc1Cl,-,-,<0.05 µM
O=C(O)CCNC(=O)c1ccc(NC(=O)CSc2nnc(Br)n2-c2ccc(C3CC3)c3ccccc23)c(Cl)c1,RT-Y181C,-,<0.05 µM
CCN1c2ncc(CCOc3ccc(C(=O)O)c4ccccc34)cc2C(=O)N(C)c2ccc(F)nc21,RT-Y188L,-,>1 µM
O=C(CSc1nnc(Br)n1-c1ccc(C2CC2)c2ccccc12)Nc1ccc(C(=O)O)cc1Cl,-,-,<0.05 µM
CC(C)c1ccc(-n2c(SCC(=O)Nc3ccc(S(N)(=O)=O)cc3Cl)nnc2C(F)F)c2ccccc12,RT-Y188L,-,>0.1 µM
CCOC(=O)CCNC(=O)c1ccc(NC(=O)CSc2nnc(Br)n2-c2ccc(CC)c3ccccc23)c(Cl)c1,RT-Y188L,-,0.05–0.1 µM
CCN1c2ncc(CCc3cccc(NC(N)=O)c3)cc2C(=O)N(C)c2ccc(Cl)nc21,-,WT,<1 µM
CCN1c2ncc(CCOc3ccc(NS(C)(=O)=O)c4ccccc34)cc2C(=O)N(C)c2ccc(F)nc21,-,WT,<0.1 µM
CCc1ccc(-n2c(SCC(=O)Nc3ccc(S(N)(=O)=O)cc3Cl)nnc2C(F)F)c2c1CCCC2,RT-Y181C,-,<0.05 µM
CC(C)C[C@H](NC(=O)c1ccc(NC(=O)CSc2nnc(Br)n2-c2ccc(C3CC3)c3ccccc23)c(Cl)c1)C(=O)O,RT-Y181C,-,<0.05 µM
CCN1c2ncc(CCOc3ccc(-c4ccc(CC(=O)O)cc4[N+](=O)[O-])cc3C)cc2C(=O)N(C)c2cccnc21,RT-K103N Y181C,IIIB,0.05–0.1 µM
NS(=O)(=O)c1ccc(NC(=O)CSc2nnc(Br)n2-c2ccc(C3CC3)cc2)c(Cl)c1,RT-Y181C,-,<0.05 µM
CCN1c2ncc(CC(O)c3ccncc3)cc2C(=O)N(C)c2ccc(F)nc21,-,WT,<1 µM
COc1ccc2c(C3CC3)ccc(-n3c(Br)nnc3SCC(=O)Nc3ccc(C(=O)O)cc3Cl)c2c1,RT-Y188L,-,0.05–0.1 µM
CCN1c2ncc(CCOc3ccc(CC(=O)O)c4ccccc34)cc2C(=O)N(C)c2ccc(C)nc21,RT-V106A,-,>1 µM
CCN1c2ncc(CCc3ccc4cc[nH]c4c3)cc2C(=O)N(C)c2ccc(Cl)nc21,-,WT,<1 µM
O=C(CSc1nnc(Br)n1-c1ccc(C2CC2)c2ccccc12)Nc1ccc(C(=O)O)cc1Cl,RT-Y188L,-,>0.1 µM
CCN1c2ncc(CCOc3ccc(CCC(=O)O)c4c3CCCC4)cc2C(=O)N(C)c2cccnc21,RT-V106A,-,>1 µM
CCN1c2ncc(CCOc3ccc(S(=O)(=O)NCC(=O)O)cc3C)cc2C(=O)N(C)c2cccnc21,RT-K103N Y181C,IIIB,<0.05 µM
CCc1ccc(-n2c(Br)nnc2SCC(=O)Nc2ccc(C(=O)N3CCC(CN)CC3)cc2Cl)c2ccccc12,RT-Y188L,-,>0.1 µM
CCN1c2ncc(CCOc3cccc4c3ccc[n+]4[O-])cc2C(=O)Nc2c(C)cc(Cl)nc21,RT-V106A,-,0.089 µM
CCc1ccc(-n2c(Br)nnc2SCC(=O)Nc2ccc(C(=O)O)cc2C)c2ccccc12,RT-Y188L,-,>0.1 µM
CCN1c2ncc(CCc3ccc4cc[nH]c4c3)cc2C(=O)N(C)c2cccnc21,RT-Y181C,-,<1 µM
Cc1cc(S(N)(=O)=O)ccc1NC(=O)CSc1nnc(Br)n1-c1ccc(C2CC2)c2ccccc12,-,-,<0.05 µM
CCN1c2ncc(CCc3ccc(C(=O)OC)cc3)cc2C(=O)N(C)c2cccnc21,-,WT,<1 µM
CCc1ccc(-n2c(C)nnc2SCC(=O)Nc2ccc(S(N)(=O)=O)cc2Cl)c2c1CCCC2,RT-Y181C,-,0.05–0.1 µM
CCN1c2ncc(CCOc3ccc(-c4cccnc4C)cc3C)cc2C(=O)N(C)c2cccnc21,-,IIIB,<0.05 µM
CCNC(=O)c1ccc(NC(=O)CSc2nnc(Br)n2-c2ccc(CC)c3ccccc23)c(Cl)c1,RT-Y188L,-,>0.1 µM
CCN1c2ncc(CCOc3ccc(-c4ccncc4)cc3)cc2C(=O)N(C)c2cccnc21,RT-K103N Y181C,IIIB,0.05–0.1 µM
CC(Sc1nnc(Br)n1-c1ccc(C2CC2)c2ccccc12)C(=O)Nc1ccc(S(N)(=O)=O)cc1Cl,RT-Y181C,-,0.05–0.1 µM
CCN1c2ncc(CCOc3ccc(C(=O)NNC)cc3C)cc2C(=O)N(C)c2cccnc21,-,IIIB,<0.05 µM
COc1ccc2cccc(-n3c(Br)nnc3SCC(=O)Nc3ccc(C(=O)O)cc3Cl)c2c1,RT-Y188L,-,>0.1 µM
CCN1c2ncc(CCOc3ccc(C(=O)NCc4ccc(C(=O)O)cc4)cc3C)cc2C(=O)N(C)c2cccnc21,-,IIIB,<0.05 µM
CCCCNC(=O)c1ccc(NC(=O)CSc2nnc(Br)n2-c2ccc(CC)c3ccccc23)c(Cl)c1,-,-,0.05–0.1 µM
Cc1cc(C)cc(S(=O)(=O)c2c(C(N)=O)[nH]c3ccc(Cl)cc23)c1,RT-Y188L,-,0.2 µM

For reference, 6 entries again:

structure | changes | strain or isolate | result
CCN1c2ncc(CCOc3cccc4c3ccc[n+]4[O-])cc2C(=O)Nc2c(C)cc(Cl)nc21 | RT-V106A | - | 0.089 µM
CCN1c2ncc(CCOc3ccc(CCC(=O)O)c4c3CCCC4)cc2C(=O)N(C)c2cccnc21 | RT-V106A | - | >1 µM
CCc1ccc(-n2c(Br)nnc2SCC(=O)Nc2ccc(C(=O)O)cc2C)c2ccccc12 | RT-Y188L | - | >0.1 µM
CCc1ccc(-n2c(Br)nnc2SCC(=O)Nc2ccc(C(=O)N3CCC(CN)CC3)cc2Cl)c2ccccc12 | RT-Y188L | - | >0.1 µM
Cc1cc(S(N)(=O)=O)ccc1NC(=O)CSc1nnc(Br)n1-c1ccc(C2CC2)c2ccccc12 | - | - | <0.05 µM
CC(C)c1ccc(-n2c(SCC(=O)Nc3ccc(S(N)(=O)=O)cc3Cl)nnc2C(F)F)c2ccccc12 | RT-Y188L | - | >0.1 µM